In PMC7676316, “Complete Mapping of Mutations to the SARS-CoV-2 Spike Receptor-Binding Domain that Escape Antibody Recognition” (Cell Host & Microbe, 2021):

What was measured:
[1] = biological target: RaTG13 RBD, unmutated, yeast-displayed (bat coronavirus RaTG13 (GenBank …, UniProt A0ABF7PLN6, strain))
[2] = biological target: GD-Pangolin RBD, unmutated, yeast-displayed (strain)
[3] = biological target: WIV16 RBD, unmutated, yeast-displayed (SARS-like coronavirus WIV16 (GenBank …, strain))
[4] = biological target: LYRa11 RBD, unmutated, yeast-displayed (bat SARS-like coronavirus LYRa11 …, UniProt A0A023PUW9, strain)

Measured: binding result

B1: COV2-2082 (human IgG) (antibody, V domains shown)
VH: EVQLVESGGGVVRPGGSLRLSCAASGFIFDDYDMTWVRQAPGKGLEWVSGISWNGGNTGYADSVKGRFTISRDNAKNSLYLQMNSLRAEDTALYHCAVIMSPIPRYSGYDWAGGAFDIWGQGTMVTVSS
VL: SSELTQDPAVSVALGQTVRITCQGDSLRSYYASWYQQKPGQVPILVIYDKNNRPSGIPDRFSGSSSGNTASLTITGAQAEDEADYYCNSRDSSGNAVVFGGGTKLTVL
binds: [1] | [2] | [3] | [4]
